Construct, isoform or probe ends are uncertain for at least one entry.
Test system: HapR (Vibrio fluvialis 85003)
Experiment: DNase I footprinting
Details: 10 mM Hepes pH 7.9, 100 mM KCl, 0.2 mM EDTA, 2 mM DTT, 10% glycerol, recombinant protein, residues 1-205, label: FAM/HEX, probe letters rebuilt from the primers and the genome

Sequence	binding result (two protected regions)	binding result (one protected region)
CAGGAAACAGCTATGACATGCGCTCTTTAGGAGCTACACTTCCTTCTTTAGACATATAACGTCTCCAAATACCTATGCCAGTCGTTGTCAATGAAATAGTTGTGTAAATATCTGATTGATAATACACATTAGAAATATCTTAATTATCTTATTTGATTTTTAGTAAATATAACTTCTTGAAATTGATTAATTCACCCGACTTCTCGTCAGACAAATATAACCATTGAATAATACAAGTTAAACTTACATATAAACTTTTATTTATAAAACTATGAATAAAGAGACAAGCCAATCTCCCTATTCCTGATATTCGAAAGCGAGCATATTCTATTCATTTAATAATGTTTTGTTGCACAAAAATCACAAGAATATGATCTTCACCCCAAAAACGATTACTTTTATCACACTTATTATCTATCGCACTGGCCGTCGTTTTAC (double strand) [tssB2 (vipA) promoter footprinting probe]	binds	–
GTAAAACGACGGCCAGTCACCGCTGCTTGATCCCAGCCGCAGATGGCAGACAAATGATTGAAGTGAGAAACCTTTTTAGAGTGTTTAACTAATTTATCGAATACGCTCATGAGAATAGCCTTCCTTGACGAAAAATGAGAGAGAAGTGTACCAACGTGCTACAGATTAACAAGTGGCCTGAACCAGCGACGTGAACCTTGCCCGACAAGCAAGATCTTGCTTGTTCAAAGGCAGTTTGTTGCTCTAATGGCAAGGTTTTAAATATAACTAATTGATTTTAAATGAATGCCAAAGTGGCATCGACTTTGCTCCCTTACTCACTGAATTCGCGCTGAGCGCACTTACATCACGAACGTTTTATCGAATGGCAAAGGTTGTCTTAACCCGTTGCCTGATAAACAACCAGTTAGAAAGGAATGAGCAATGCCAACTCCATGTTATATCTCTATCGAAGGTCAAACTCAGGGTCTAATCACTGCAGGGTCATAGCTGTTTCCTG (double strand) [tssD2_a (hcpA) promoter footprinting probe]	–	binds
